Laboratory results: patent US20180327367A1, “MACROCYCLIC BROAD SPECTRUM ANTIBIOTICS” (priority 2015, published 2018)

By UniProt entry, the sequences of proteins in these tests, tags left out.
UniProt P0A070, whole entry: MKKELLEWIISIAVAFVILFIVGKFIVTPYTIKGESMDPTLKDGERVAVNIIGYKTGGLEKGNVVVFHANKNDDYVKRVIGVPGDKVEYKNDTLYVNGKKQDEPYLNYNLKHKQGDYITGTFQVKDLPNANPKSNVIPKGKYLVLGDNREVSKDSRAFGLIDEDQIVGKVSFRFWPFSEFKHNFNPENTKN

Columns and labels:
[1] = tested on: Methicillin Resistant Staphylococcus aureus strain USA 300, NRS384; assay: Minimum inhibitory concentration, broth micro-dilution (CLSI), S. aureus; format: cell-based; conditions: MRSA USA 300 NRS384, 35° C., 22 hours
[2] = tested on: Escherichia coli ATCC 25922; assay: Minimum inhibitory concentration, broth micro-dilution (CLSI), E. coli; format: cell-based; conditions: E. coli ATCC 25922, 35° C., 22 hours
[3] = tested on: Escherichia coli MC4100 harboring the IMP4213 (E. coli IMP); conditions: E. coli MC4100 IMP4213, increased outer-membrane permeability, 35° C., 22 hours
[4] = biological target: SpsB (Staphylococcus aureus signal peptidase) (Staphylococcus aureus, UniProt P0A070); conditions: read-out: SpsB IC50, whole-cell S. aureus (USA300 background, overexpressing SpsB) as SpsB source, fluorogenic peptide substrate, kinetic read 30 min

Row | Structure (SMILES) | MIC (μg/mL) S. aureus ([1]; tested form: formic acid salt) [µg/mL] | MIC (μg/mL) E. coli ([2]; tested form: formic acid salt) [µg/mL] | MIC (μg/mL) E. coli IMP ([3]; tested form: formic acid salt) [µg/mL] | IC50 ([4]; tested form: formic acid salt) [nM] | MIC (μg/mL) S. aureus [1] [µg/mL] | MIC (μg/mL) E. coli [2] [µg/mL] | MIC (μg/mL) E. coli IMP [3] [µg/mL] | IC50 [4] [nM]
1 | CCCCCCCCc1ccc(C(=O)N[C@@H](CCN)C(=O)N(C)[C@@H]2C(=O)N[C@@H](C)C(=O)N[C@H](C(=O)NCC#N)Cc3ccc(OCCN)c(c3)-c3cc2ccc3OCCN)c(CC)c1 | 0.063 | 0.19 | 0.016 | 0.56 |  |  |  | 
2 | CCCCCCCCc1ccc(C(=O)N[C@@H](CCCCN)C(=O)N(C)[C@@H]2C(=O)N[C@@H](C)C(=O)N[C@H](C(=O)NCC#N)Cc3ccc(OCCN)c(c3)-c3cc2ccc3OCCN)cc1 |  | 0.75 | <0.063 | < 0.5 |  |  |  | 
3 | Cc1cc(C(C)C(C)(C)C)ccc1C(=O)N[C@@H](CCN)C(=O)N(C)[C@@H]1C(=O)N[C@@H](C)C(=O)N[C@H](C(=O)NCC#N)Cc2ccc(OCCN)c(c2)-c2cc1ccc2OCCN (stereo partly drawn) | 0.063 | 1.3 | 0.031 | 1 |  |  |  | 
4 | CCCCCCCCCC(=O)N[C@@H](CCC)C(=O)N[C@@H](CCN)C(=O)N(C)[C@@H]1C(=O)N[C@@H](C)C(=O)N[C@H](C(=O)NCC#N)Cc2ccc(OCCN)c(c2)-c2cc1ccc2OCCN | 0.047 | 1.5 | 0.0078 | 0.8 |  |  |  | 
5 | CCCCCCCCCCCCCC(=O)N[C@@H](CCN)C(=O)N(C)[C@@H]1C(=O)N[C@@H](C)C(=O)N[C@H](C(=O)NCC#N)Cc2ccc(OCC(N)=O)c(c2)-c2cc1ccc2OCC(N)=O |  |  |  |  | 0.25 (≈ 0.285 µM) | 12 (≈ 13.7 µM) | 0.016 (≈ 0.0183 µM) | 2.3
6 | Cc1cc(-c2ccc(C(C)(C)C)cc2)ccc1C(=O)N[C@@H](CCCN)C(=O)N(C)[C@@H]1C(=O)N[C@@H](C)C(=O)N[C@H](C(=O)NCC#N)Cc2ccc(OCCN)c(c2)-c2cc1ccc2OCCN | 0.031 | 0.22 | 0.023 | 0.75 |  |  |  | 
7 | CCC/C=C/c1ccc(C(=O)N[C@@H](CCN)C(=O)N(C)[C@@H]2C(=O)N[C@@H](C)C(=O)N[C@H](C(=O)NCC#N)Cc3ccc(OCCN)c(c3)-c3cc2ccc3OCCN)c(C)c1 |  |  |  |  | 0.047 (≈ 0.057 µM) | 0.63 (≈ 0.765 µM) | 0.016 (≈ 0.0194 µM) | 0.68

In brackets after ≈: the same amount, converted by molar mass. Like-named read-outs stand apart in the source and are kept apart here.
